Pooled drug test results. Numbers come from NIAID ChemDB, via PubChem.

All rows: tests on isolated targets; organism: HIV-1; protein: Reverse transcriptase; read-out: IC50

Lines come from different laboratories, so protocols vary.

compound	method	strain or isolate	changes	result
Cc1occc1C(=S)Nc1ccc(Cl)c(/C=N/OC(C)(C)C)c1	-	-	RT-Y188L	95 µM
COc1cccc(C(=O)CC2(O)C(=O)Nc3ccc(Cl)cc32)c1	RT activity / absorbance	-	-	51.31 µM
O=C1c2ccccc2S[C@H]2[C@@H](O)[C@@H](O)[C@H](O)[C@H](CO)N12	RT activity / absorbance	-	-	0.49 µM
N#Cc1cc(Cl)cc(Oc2c(Br)ccc(Cn3c(=O)[nH]c4ccccc43)c2F)c1	scintillation proximity / radiometric	-	Wild type	0.013 µM
O=C(/C=C/c1ccc(O)c(O)c1)OC1[C@H](O)CC(O)(C(=O)O)C[C@H]1O	RT activity / absorbance	-	-	387 µM
CCN1c2ncc(C=O)cc2C(=O)N(C)c2ccc(Cl)nc21	nucleotide incorporation / radiometric	WT	-	>1 µM
Cc1ncc([N+](=O)[O-])n1CCOC(c1ccccc1)c1cccs1	RT activity / nucleotide incorporation	-	-	11.9 µM
CCN1c2ncc(CCl)cc2C(=O)N(C)c2ccc(Cl)nc21	nucleotide incorporation / radiometric	-	RT-Y181C	<1 µM
COc1cc(O)c2c(=O)cc(-c3ccc(O)cc3)oc2c1	RT activity / absorbance	-	-	1087 µM
CCc1nnn2c1CO[C@H]1[C@H](O)[C@H](O)[C@@H]3Sc4ccccc4C(=O)N3[C@H]1C2	RT activity / absorbance	-	-	10.28 µM
Cc1cc(C#N)cc(C)c1Oc1ncc(N)c(Nc2ccc(C#N)cc2)n1	absorbance	-	-	2.1 µM
Cc1cccc(C(=O)CC2(O)C(=O)Nc3ccccc32)c1	RT activity / absorbance	-	-	62.37 µM
Cc1c(Sc2ccccc2)n(COCCO)c(=O)[nH]c1=O	-	-	RT-L100I	>5 µM
O=c1c2cc(O)ccc2oc2cc(O)cc(O)c12	RT activity / radiometric	-	-	78.85 µM
O=C(CC1(O)C(=O)Nc2ccccc21)c1cccc(Br)c1	RT activity / absorbance	-	-	>100 µM
Cn1cc(Cc2ccc(Br)c(Oc3cc(Cl)cc(C#N)c3)c2F)c(=O)[nH]c1=O	scintillation proximity / radiometric	-	Wild type	0.006 µM
CC(C)=CC[C@H]1C[C@]2(C[C@H]3CCC(C)(C)C=C3C)C(=O)C3=C(OC(C)(C)CC3)[C@@](C(=O)c3ccccc3)(C2=O)C1(C)C	RT activity / radiometric	-	-	126 µM
O=C(CC1(O)C(=O)Nc2ccccc21)c1ccccc1	RT activity / absorbance	-	-	>100 µM
CCN1c2ncc(COc3ccc(F)cc3)cc2C(=O)N(C)c2ccc(Cl)nc21	nucleotide incorporation / radiometric	WT	-	<1 µM
C/C(=C\CC[C@@H](C)C1CC[C@@]2(C)[C@@H]3CC[C@H]4C(C)(C)C(=O)CC[C@]4(C)[C@@]3(O)CC[C@]12C)C(=O)O	RT activity / radiometric	-	-	143 µM
CCN1c2ncc(COc3cc[n+]([O-])cc3)cc2C(=O)N(C)c2ccc(Cl)nc21	nucleotide incorporation / radiometric	WT	-	<1 µM
O=C(/C=C/c1ccc(O)c(O)c1)O[C@H]1[C@H](O)C[C@](O)(C(=O)O)C[C@H]1OC(=O)/C=C/c1ccc(O)c(O)c1	RT activity / absorbance	-	-	352 µM
COc1cc2c(ccc3c4cc(OC)c(OC)cc4c[n+](C)c23)cc1O	RT activity / radiometric	-	-	24.9 µM
O=C(CC1(O)C(=O)Nc2ccc(Br)cc21)c1ccc(F)cc1	RT activity / absorbance	-	-	15.54 µM
O=C(c1cc(O)cc(O)c1)c1c(O)cc(O)cc1O	RT activity / radiometric	-	-	272 µM
C/C=C/CSc1cc(NC(=S)c2ccsc2C)ccc1Cl	-	-	RT-Y188L	>100 µM
Cc1cn([C@H]2C=C[C@@H](CO)O2)c(=O)[nH]c1=O	RT activity	-	-	>100 µM
O=C(/C=C/c1ccc(O)c(O)c1)O[C@@H]1CC(O)(C(=O)O)C[C@@H](OC(=O)/C=C/c2ccc(O)c(O)c2)C1O	RT activity / absorbance	-	-	315 µM
O=C1c2c(O)cc(O)cc2O[C@@H](c2ccc(O)cc2)[C@@H]1c1c(O)cc(O)c2c(=O)cc(-c3ccc(O)c(O)c3)oc12	RT activity / radiometric	-	-	86.94 µM
COc1ccc(C(C)=O)c(O)c1[C@H]1C[C@H]1NC(=S)Nc1ccc(Cl)cn1	ELISA	-	-	0.17 µM
O=C(CC1(O)C(=O)Nc2ccc(Br)cc21)c1ccccc1Cl	RT activity / absorbance	-	-	2.03 µM
NC(=O)c1[nH]cnc1-c1ccc(Cl)c(Br)c1	fluorescence	-	-	>41 µM
CC(C)=CCOc1cc(NC(=S)c2ccoc2C)ccc1Cl	-	-	RT-E138K	2.1 µM
O=C(OC[C@H]1O[C@@H](n2cc(C(=O)Nc3ccc(Cl)cc3)c(=O)c3cc(Cl)ccc32)[C@H](OC(=O)c2ccccc2)[C@@H]1OC(=O)c1ccccc1)c1ccccc1	ELISA / nucleotide incorporation	HXB2	-	8.8 µM
Cc1ncc([N+](=O)[O-])n1CCO	RT activity / nucleotide incorporation	-	-	0.094 µM
COC(=O)C1C(=O)N(O)C(=O)c2ccccc21	RNase H	-	-	0.061 µM
O=C(CC1(O)C(=O)Nc2ccc(Cl)cc21)c1ccc(Cl)c(Cl)c1	RT activity / absorbance	-	-	68.86 µM
Cc1nnn2c1CO[C@H]1[C@H](O)[C@H](O)[C@@H]3Sc4ccccc4C(=O)N3[C@H]1C2	RT activity / absorbance	-	-	11.85 µM
COc1cc(-c2ccccc2)c(OC)c(OC)c1O	RT activity / radiometric	-	-	202.5 µM
COc1ccc2c(c1)N(C(=O)OC(C)C)[C@@H](CSC)C(=S)N2	scintillation proximity / radiometric	-	RT-G190S	1 µM
Cc1cnc([N+](=O)[O-])n1CC(=O)Nc1cccc(O)c1	RT activity / nucleotide incorporation	-	-	>100 µM
CCN1c2ncc(CCc3ccccc3)cc2C(=O)N(C)c2cccnc21	nucleotide incorporation / radiometric	WT	-	<1 µM
Cc1ncc([N+](=O)[O-])n1CCOC(c1ccccc1)c1ccsc1	RT activity / nucleotide incorporation	-	-	19.6 µM
CCN1c2ncc(CCOc3ccncc3)cc2C(=O)N(C)c2cccnc21	nucleotide incorporation / radiometric	-	RT-Y181C	<1 µM
CCc1c(CC23CC4CC(CC(C4)C2)C3)nc(SCC(=O)c2ccc(OC)cc2)[nH]c1=O	RT activity / ELISA	-	-	3.37 µM
N#Cc1cc(Cl)cc(Oc2c(Br)ccc(Cn3ccc(=O)[nH]c3=O)c2F)c1	scintillation proximity / radiometric	-	Wild type	0.004 µM
Cc1cn([C@H]2C=C[C@@H](COP(=O)(O)O)O2)c(=O)[nH]c1=O	RT activity	-	-	>100 µM
CCCN(C)c1nc([C@@H](C)c2c(F)cccc2F)c(C)c(=O)[nH]1	RT activity	-	Y188L	>20 µM
Cc1cccc(C(=O)CC2(O)C(=O)Nc3ccc(Br)cc32)c1	RT activity / absorbance	-	-	1.38 µM
CN1C(=O)NC(=O)C1Cc1ccc(Br)c(Oc2cc(Cl)cc(C#N)c2)c1F	scintillation proximity / radiometric	-	Wild type	0.006 µM
COc1ccc(Oc2ccc(C(=O)O)cc2NC(=O)Nc2c(C)cccc2C)cc1	scintillation proximity / radiometric	-	Wild type	>5 µM
O=C1c2ccccc2S[C@@H]2[C@@H](O)[C@@H](O)[C@@H]3OCc4cnnn4C[C@@H]3N12	RT activity / absorbance	-	-	14.38 µM
N#Cc1cc(Cl)cc(Oc2c(Br)ccc(CN3CC(=O)NC3=O)c2F)c1	scintillation proximity / radiometric	-	Wild type	0.009 µM
C=C1[C@H](CO)[C@@H](O)C[C@@H]1n1cnc2c(=O)[nH]c(N)nc21	absorbance	-	-	6.5 µM
CN1CCN(C(=O)COc2ccc(NC(=O)CSc3nnnn3-c3ccc(C(C)(C)C)cc3Cl)c(Cl)c2)CC1	PicoGreen / fluorescence	WT	-	<1 µM
N#Cc1cc(Cl)cc(Oc2c(Br)ccc(Cn3[nH]c(=O)[nH]c3=O)c2F)c1	scintillation proximity / radiometric	K103N/Y181C	NNRTI-resistant (RT K103N/Y181C)	0.005 µM

An empty or dashed field is not shown. ICn: concentration for n% inhibition.